System: RNAP holoenzyme (β′/β/α^I/α^II/ω/σ^70)
Assay: FRET probe-probe distances in RNAP holoenzyme with and without Lpm
Design: species or system Escherichia coli

## lipiarmycin [Lpm]
Between β′ residue 1377 and σ residues 527 and 537
  decrease in distance on binding of Lpm: > 10 Å
α^II235-F/σ-TMR, σ R1.1 residue 59
  R (Å) +Lpm: 111 Å
α^II235-F/σ-TMR, σ R2 residue 366
  R (Å) +Lpm: 125 Å
α^II235-F/σ-TMR, σ R3.1 residue 459
  R (Å) +Lpm: 94 Å
α^II235-F/σ-TMR, σ R3.2 residue 517
  R (Å) +Lpm: 73 Å
α^II235-F/σ-TMR, σ R3.2 residue 527
  R (Å) +Lpm: 74 Å
α^II235-F/σ-TMR, σ R3.2 residue 537
  R (Å) +Lpm: 75 Å
α^II235-F/σ-TMR, σ R4 residue 560
  R (Å) +Lpm: 95 Å
α^II235-F/σ-TMR, σ R4 residue 569
  R (Å) +Lpm: 95 Å
α^II235-F/σ-TMR, σ R4 residue 578
  R (Å) +Lpm: 104 Å
α^II235-F/σ-TMR, σ R4 residue 583
  R (Å) +Lpm: 99 Å
α^II235-F/σ-TMR, σ R4 residue 596
  R (Å) +Lpm: 75 Å
β′1377-F/σ-TMR, σ R1.1 residue 59
  R (Å) +Lpm: 74 Å
β′1377-F/σ-TMR, σ R2 residue 366
  R (Å) +Lpm: 74 Å
β′1377-F/σ-TMR, σ R3.1 residue 459
  R (Å) +Lpm: 66 Å
β′1377-F/σ-TMR, σ R3.2 residue 517
  R (Å) +Lpm: 60 Å
β′1377-F/σ-TMR, σ R3.2 residue 527
  R (Å) +Lpm: 62 Å
β′1377-F/σ-TMR, σ R3.2 residue 537
  R (Å) +Lpm: 58 Å
β′1377-F/σ-TMR, σ R4 residue 560
  R (Å) +Lpm: 72 Å
β′1377-F/σ-TMR, σ R4 residue 569
  R (Å) +Lpm: 66 Å
β′1377-F/σ-TMR, σ R4 residue 578
  R (Å) +Lpm: 72 Å
β′1377-F/σ-TMR, σ R4 residue 583
  R (Å) +Lpm: 80 Å
β′1377-F/σ-TMR, σ R4 residue 596
  R (Å) +Lpm: 69 Å

From US8206898B2, “RNA exit channel: target and method for inhibition of bacterial RNA polymerase” (priority 2003, dated 2012)
